Experimental data published in ChEMBL document CHEMBL4364262 (J Med Chem, 2019).

The chains behind the UniProt entries cited, without tags or fusion partners.
UniProt P04757, whole entry, looked up: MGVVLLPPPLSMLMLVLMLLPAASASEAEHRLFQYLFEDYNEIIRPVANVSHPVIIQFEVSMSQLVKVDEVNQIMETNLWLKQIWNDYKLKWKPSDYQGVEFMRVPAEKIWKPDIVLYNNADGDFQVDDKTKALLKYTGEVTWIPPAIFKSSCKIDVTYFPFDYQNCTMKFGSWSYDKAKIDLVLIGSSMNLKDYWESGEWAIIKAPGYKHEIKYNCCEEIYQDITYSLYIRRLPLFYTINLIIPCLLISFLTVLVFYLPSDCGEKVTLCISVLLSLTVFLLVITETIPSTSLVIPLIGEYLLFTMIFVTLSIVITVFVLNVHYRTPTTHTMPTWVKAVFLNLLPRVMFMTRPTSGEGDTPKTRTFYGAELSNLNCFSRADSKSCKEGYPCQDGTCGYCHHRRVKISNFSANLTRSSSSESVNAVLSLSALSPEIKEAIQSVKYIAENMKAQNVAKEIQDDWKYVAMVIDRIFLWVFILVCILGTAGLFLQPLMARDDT
UniProt P12390, whole entry, looked up: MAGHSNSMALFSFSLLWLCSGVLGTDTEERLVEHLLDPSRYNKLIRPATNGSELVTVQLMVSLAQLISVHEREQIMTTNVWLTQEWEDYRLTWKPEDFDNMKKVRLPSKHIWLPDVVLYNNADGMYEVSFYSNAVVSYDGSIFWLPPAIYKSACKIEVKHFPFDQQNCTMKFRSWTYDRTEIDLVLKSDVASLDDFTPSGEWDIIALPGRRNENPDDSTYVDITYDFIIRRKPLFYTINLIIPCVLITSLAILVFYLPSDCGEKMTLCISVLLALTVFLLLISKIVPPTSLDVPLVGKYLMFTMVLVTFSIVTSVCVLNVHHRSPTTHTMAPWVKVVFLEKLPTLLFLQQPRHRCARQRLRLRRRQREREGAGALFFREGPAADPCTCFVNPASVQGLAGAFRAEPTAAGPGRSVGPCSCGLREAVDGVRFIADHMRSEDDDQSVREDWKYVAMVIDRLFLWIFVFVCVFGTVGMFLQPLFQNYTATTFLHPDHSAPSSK

What was measured:
Rattus norvegicus = species on record: Rattus norvegicus; assay: Selectivity ratio of IC50 for rat alpha6/alpha3beta2beta3 nAChR expressed in Xenopus laevis oocytes to IC50 for rat alpha3beta2 nACHR expressed in Xenopus laevis oocytes
[1] = biological target: Neuronal acetylcholine receptor; alpha3/beta2 (Rattus norvegicus) (UniProt P04757+P12390); assay: Antagonist activity at rat alpha3beta2 nACHR expressed in Xenopus laevis oocytes assessed as inhibition of Ach-induced response at -70 mV holding potential by two electrode voltage-clamp assay relative to PeIA logIC50

SMILES	Ratio IC50 (Rattus norvegicus)	FC [1]
CC(C)[C@@H]1NC(=O)[C@H](CO)NC(=O)[C@@H]2CSSC[C@H](NC(=O)CN)C(=O)N[C@@H](CSSC[C@@H](C(N)=O)NC(=O)[C@H](CCCNC(=N)N)NC(=O)[C@H](CCC(=O)O)NC(=O)[C@@H]3CCCN3C(=O)[C@H](Cc3cnc[nH]3)NC(=O)[C@H](CC(N)=O)NC1=O)C(=O)N[C@@H](CO)C(=O)N[C@@H](Cc1cnc[nH]1)C(=O)N1CCC[C@H]1C(=O)N[C@@H](C)C(=O)N2	0.3	0.9
CC(C)C[C@@H]1NC(=O)[C@H](CCC(=O)O)NC(=O)[C@@H]2CCCN2C(=O)[C@H](Cc2cnc[nH]2)NC(=O)[C@H](CCCCCC(=O)O)NC(=O)[C@H](C(C)C)NC(=O)[C@H](CO)NC(=O)[C@@H]2CSSC[C@H](NC(=O)CN)C(=O)N[C@@H](CSSC[C@@H](C(N)=O)NC1=O)C(=O)N[C@@H](CO)C(=O)N[C@@H](Cc1cnc[nH]1)C(=O)N1CCC[C@H]1C(=O)N[C@@H](C)C(=O)N2	59	0.4
CC(C)C[C@@H]1NC(=O)[C@H](CCCCCC(=O)O)NC(=O)[C@@H]2CCCN2C(=O)[C@H](Cc2cnc[nH]2)NC(=O)[C@H](CC(N)=O)NC(=O)[C@H](C(C)C)NC(=O)[C@H](CO)NC(=O)[C@@H]2CSSC[C@H](NC(=O)CN)C(=O)N[C@@H](CSSC[C@@H](C(N)=O)NC1=O)C(=O)N[C@@H](CO)C(=O)N[C@@H](Cc1cnc[nH]1)C(=O)N1CCC[C@H]1C(=O)N[C@@H](C)C(=O)N2	1	0.9
CCCC[C@@H]1NC(=O)[C@H](CCC(=O)O)NC(=O)[C@@H]2CCCN2C(=O)[C@H](Cc2cnc[nH]2)NC(=O)[C@H](CC(N)=O)NC(=O)[C@H](C(C)C)NC(=O)[C@H](CO)NC(=O)[C@@H]2CSSC[C@H](NC(=O)CN)C(=O)N[C@@H](CSSC[C@@H](C(N)=O)NC1=O)C(=O)N[C@@H](CO)C(=O)N[C@@H](Cc1cnc[nH]1)C(=O)N1CCC[C@H]1C(=O)N[C@@H](C)C(=O)N2	0.6	0.1
CC[C@H](C)[C@@H]1NC(=O)[C@H](CCC(=O)O)NC(=O)[C@@H]2CCCN2C(=O)[C@H](Cc2cnc[nH]2)NC(=O)[C@H](CC(N)=O)NC(=O)[C@H]([C@@H](C)CC)NC(=O)[C@H](Cc2cnc[nH]2)NC(=O)[C@@H]2CSSC[C@H](NC(=O)CN)C(=O)N[C@@H](CSSC[C@@H](C(N)=O)NC1=O)C(=O)N[C@@H](CO)C(=O)N[C@@H](Cc1cnc[nH]1)C(=O)N1CCC[C@H]1C(=O)N[C@@H](C)C(=O)N2	3	–
CC(C)C[C@@H]1NC(=O)[C@H](CCC(=O)O)NC(=O)[C@@H]2CCCN2C(=O)[C@H](Cc2cnc[nH]2)NC(=O)[C@H](CC(N)=O)NC(=O)[C@H](C(C)C)NC(=O)[C@H](CC(N)=O)NC(=O)[C@@H]2CSSC[C@H](NC(=O)CN)C(=O)N[C@@H](CSSC[C@@H](C(N)=O)NC1=O)C(=O)N[C@@H](CO)C(=O)N[C@@H](Cc1cnc[nH]1)C(=O)N1CCC[C@H]1C(=O)N[C@@H](C)C(=O)N2	2	-0.3
CC(C)C[C@@H]1NC(=O)[C@H](CO)NC(=O)[C@@H]2CSSC[C@@H](C(N)=O)NC(=O)[C@H](Cc3ccc(O)cc3)NC(=O)[C@H](CC(=O)O)NC(=O)[C@@H]3CCCN3C(=O)[C@H](CC(N)=O)NC(=O)[C@H](CC(N)=O)NC(=O)[C@H](C)NC(=O)[C@H](C)NC(=O)[C@H](CSSC[C@H](NC(=O)CN)C(=O)N2)NC(=O)[C@@H]2CCCN2C(=O)[C@@H]2CCCN2C1=O	1	–
CC(C)C[C@@H]1NC(=O)[C@H](CC(C(=O)O)C(=O)O)NC(=O)[C@@H]2CCCN2C(=O)[C@H](Cc2cnc[nH]2)NC(=O)[C@H](CC(N)=O)NC(=O)[C@H](C(C)C)NC(=O)[C@H](CO)NC(=O)[C@@H]2CSSC[C@H](NC(=O)CN)C(=O)N[C@@H](CSSC[C@@H](C(N)=O)NC1=O)C(=O)N[C@@H](CO)C(=O)N[C@@H](Cc1cnc[nH]1)C(=O)N1CCC[C@H]1C(=O)N[C@@H](C)C(=O)N2	2	-0.1
CC[C@H](C)[C@@H]1NC(=O)[C@H](Cc2cnc[nH]2)NC(=O)[C@@H]2CSSC[C@H](NC(=O)CN)C(=O)N[C@@H](CSSC[C@@H](C(N)=O)NC(=O)[C@H](CC(C)C)NC(=O)[C@H](CCC(=O)O)NC(=O)[C@@H]3CCCN3C(=O)[C@H](Cc3cnc[nH]3)NC(=O)[C@H](CCCC(=O)O)NC1=O)C(=O)N[C@@H](CO)C(=O)N[C@@H](Cc1cnc[nH]1)C(=O)N1CCC[C@H]1C(=O)N[C@@H](C)C(=O)N2	52	–
CC(C)C[C@@H]1NC(=O)[C@H](CCC(=O)O)NC(=O)[C@@H]2CCCN2C(=O)[C@H](Cc2cnc[nH]2)NC(=O)[C@H](CC(N)=O)NC(=O)[C@H](C(C)C)NC(=O)[C@H](Cc2ccc(O)cc2)NC(=O)[C@@H]2CSSC[C@H](NC(=O)CN)C(=O)N[C@@H](CSSC[C@@H](C(N)=O)NC1=O)C(=O)N[C@@H](CO)C(=O)N[C@@H](Cc1cnc[nH]1)C(=O)N1CCC[C@H]1C(=O)N[C@@H](C)C(=O)N2	1	-0.3
CC(C)C[C@@H]1NC(=O)[C@H](CCCC(=O)O)NC(=O)[C@@H]2CCCN2C(=O)[C@H](Cc2cnc[nH]2)NC(=O)[C@H](CC(N)=O)NC(=O)[C@H](C(C)C)NC(=O)[C@H](CO)NC(=O)[C@@H]2CSSC[C@H](NC(=O)CN)C(=O)N[C@@H](CSSC[C@@H](C(N)=O)NC1=O)C(=O)N[C@@H](CO)C(=O)N[C@@H](Cc1cnc[nH]1)C(=O)N1CCC[C@H]1C(=O)N[C@@H](C)C(=O)N2	0.3	0.8
CC[C@H](C)[C@@H]1NC(=O)[C@H](CO)NC(=O)[C@@H]2CSSC[C@H](NC(=O)CN)C(=O)N[C@@H](CSSC[C@@H](C(N)=O)NC(=O)[C@H](CC(C)C)NC(=O)[C@H](CCC(=O)O)NC(=O)[C@@H]3CCCN3C(=O)[C@H](Cc3cnc[nH]3)NC(=O)[C@H](CC(N)=O)NC1=O)C(=O)N[C@@H](CO)C(=O)N[C@@H](Cc1cnc[nH]1)C(=O)N1CCC[C@H]1C(=O)N[C@@H](C)C(=O)N2	1	-0.2
CC(C)C[C@@H]1NC(=O)[C@H](CCC(N)=O)NC(=O)[C@@H]2CCCN2C(=O)[C@H](Cc2cnc[nH]2)NC(=O)[C@H](CC(N)=O)NC(=O)[C@H](C(C)C)NC(=O)[C@H](CO)NC(=O)[C@@H]2CSSC[C@H](NC(=O)CN)C(=O)N[C@@H](CSSC[C@@H](C(N)=O)NC1=O)C(=O)N[C@@H](CO)C(=O)N[C@@H](Cc1cnc[nH]1)C(=O)N1CCC[C@H]1C(=O)N[C@@H](C)C(=O)N2	0.2	0.6
CC(C)C[C@@H]1NC(=O)[C@H](CCC(=O)O)NC(=O)[C@@H]2CCCN2C(=O)[C@H](Cc2cnc[nH]2)NC(=O)[C@H](CCC(=O)O)NC(=O)[C@H](C(C)C)NC(=O)[C@H](CO)NC(=O)[C@@H]2CSSC[C@H](NC(=O)CN)C(=O)N[C@@H](CSSC[C@@H](C(N)=O)NC1=O)C(=O)N[C@@H](CO)C(=O)N[C@@H](Cc1cnc[nH]1)C(=O)N1CCC[C@H]1C(=O)N[C@@H](C)C(=O)N2	4	0.2
CC[C@H](C)[C@@H]1NC(=O)[C@H](Cc2cnc[nH]2)NC(=O)[C@@H]2CSSC[C@H](NC(=O)CN)C(=O)N[C@@H](CSSC[C@@H](C(N)=O)NC(=O)[C@H](CC(C)C)NC(=O)[C@H](CCC(=O)O)NC(=O)[C@@H]3CCCN3C(=O)[C@H](Cc3cnc[nH]3)NC(=O)[C@H](CCC(=O)O)NC1=O)C(=O)N[C@@H](CO)C(=O)N[C@@H](Cc1cnc[nH]1)C(=O)N1CCC[C@H]1C(=O)N[C@@H](C)C(=O)N2	14	–
CC[C@H](C)[C@@H]1NC(=O)[C@H](Cc2cnc[nH]2)NC(=O)[C@@H]2CSSC[C@H](NC(=O)CN)C(=O)N[C@@H](CSSC[C@@H](C(N)=O)NC(=O)[C@H](CC(C)C)NC(=O)[C@H](CCC(=O)O)NC(=O)[C@@H]3CCCN3C(=O)[C@H](Cc3cnc[nH]3)NC(=O)[C@H](CC(=O)O)NC1=O)C(=O)N[C@@H](CO)C(=O)N[C@@H](Cc1cnc[nH]1)C(=O)N1CCC[C@H]1C(=O)N[C@@H](C)C(=O)N2	12	–
CC[C@H](C)[C@@H]1NC(=O)[C@H](Cc2cnc[nH]2)NC(=O)[C@@H]2CSSC[C@H](NC(=O)CN)C(=O)N[C@@H](CSSC[C@@H](C(N)=O)NC(=O)[C@H](CC(C)C)NC(=O)[C@H](CCC(=O)O)NC(=O)[C@@H]3CCCN3C(=O)[C@H](Cc3cnc[nH]3)NC(=O)[C@H](CC(N)=O)NC1=O)C(=O)N[C@@H](CO)C(=O)N[C@@H](Cc1cnc[nH]1)C(=O)N1CCC[C@H]1C(=O)N[C@@H](C)C(=O)N2	3	–
CC(C)C[C@@H]1NC(=O)[C@H](CC(N)=O)NC(=O)[C@H](CO)NC(=O)[C@H](Cc2cnc[nH]2)NC(=O)[C@H](CCC(=O)O)NC(=O)[C@H](CC(C)C)NC(=O)[C@H](Cc2cnc[nH]2)NC(=O)[C@@H]2CSSC[C@H](NC(=O)CN)C(=O)N[C@@H](CSSC[C@@H](C(N)=O)NC1=O)C(=O)N[C@@H](CO)C(=O)N[C@@H](CC(N)=O)C(=O)N1CCC[C@H]1C(=O)N[C@@H](C(C)C)C(=O)N2	0.6	–
CC[C@H](C)[C@@H]1NC(=O)[C@H](Cc2cnc[nH]2)NC(=O)[C@@H]2CCCN2C(=O)[C@H](CC(N)=O)NC(=O)[C@H](CC(N)=O)NC(=O)[C@H](C(C)C)NC(=O)[C@H](CC(N)=O)NC(=O)[C@@H]2CSSC[C@H](NC(=O)CN)C(=O)N[C@@H](CSSC[C@@H](C(=O)NCC(N)=O)NC1=O)C(=O)N[C@@H](CO)C(=O)N[C@@H](Cc1cnc[nH]1)C(=O)N1CCC[C@H]1C(=O)N[C@@H](C)C(=O)N2	18	–
CC[C@H](C)[C@@H]1NC(=O)CNC(=O)[C@H](C)NC(=O)[C@@H]2CSSC[C@H](NC(=O)CN)C(=O)N[C@@H](CSSC[C@@H](C(N)=O)NC(=O)[C@H](CC(C)C)NC(=O)[C@H](CCC(=O)O)NC(=O)[C@H](CCC(=O)O)NC(=O)[C@H](Cc3cnc[nH]3)NC1=O)C(=O)N[C@@H](C)C(=O)N[C@@H](CCCNC(=N)N)C(=O)N[C@@H](C)C(=O)N[C@@H](C)C(=O)N2	9	–
CC[C@H](C)[C@@H]1NC(=O)[C@H](Cc2cnc[nH]2)NC(=O)[C@@H]2CSSC[C@H](NC(=O)CN)C(=O)N[C@@H](CSSC[C@@H](C(N)=O)NC(=O)[C@H](CC(C)C)NC(=O)[C@H](CCC(=O)O)NC(=O)[C@@H]3CCCN3C(=O)[C@H](Cc3cnc[nH]3)NC(=O)[C@H](CCCCCC(=O)O)NC1=O)C(=O)N[C@@H](CO)C(=O)N[C@@H](Cc1cnc[nH]1)C(=O)N1CCC[C@H]1C(=O)N[C@@H](C)C(=O)N2	39	–
